A mixed list of measured activities; the numbers were collected in NIAID ChemDB.

Shared fields: growth or infection tests; agent: Mycobacterium smegmatis

Zone: diameter of growth inhibition.

{"structure": "CCCCN(CCCC)CCN(C)C", "tested at": "250 µg/mL", "measure": "inhibition", "strain or isolate": "ATCC 607", "result": "0%"}
{"structure": "CCCCCCCCCCCCCCCCC(=O)NC(C)(CCC(=O)O)CCC(=O)O", "measure": "MIC", "strain or isolate": "mc155", "result": "18 µg/mL"}
{"structure": "COc1c(N2CC[C@@H](CN)C2)c(F)cc2c(=O)n(N)c(=O)n(C3CC3)c12", "measure": "MIC99", "strain or isolate": "A91V mutant", "result": "5 µg/mL"}
{"structure": "CC(C)CNCCNCC(C)C", "tested at": "250 µg/mL", "measure": "inhibition", "strain or isolate": "ATCC 607", "result": "0%"}
{"structure": "CCC1CN(c2c(F)cc3c(=O)n(N)c(=O)n(C4CC4)c3c2OC)CCN1", "measure": "MIC99", "strain or isolate": "D95Y mutant", "result": "10 µg/mL"}
{"structure": "CN[C@@H]1[C@H](O[C@H]2[C@H](O[C@H]3[C@H](O)[C@@H](O)[C@H](N=C(N)N)[C@@H](O)[C@@H]3N=C(N)N)O[C@@H](C)[C@]2(O)C=O)O[C@@H](CO)[C@H](O)[C@H]1O", "tested at": "25 µg/mL", "measure": "zone", "read by": "agar diffusion / agar", "strain or isolate": "ATCC 607", "result": "35 mm"}
{"structure": "Cc1ccc(S(=O)(=O)Nc2oc(-c3ccccc3)c(-c3ccccc3)c2C#N)cc1", "tested at": "50 µg/mL", "measure": "inhibition", "read by": "resazurin", "result": "37%"}
{"structure": "Cc1c(N2CC[C@@H](CN)C2)c(F)cc2c(=O)n(N)c(=O)n(C3CC3)c12", "measure": "MIC99", "strain or isolate": "D95Y mutant", "result": "2.5 µg/mL"}
{"structure": "CCOC(=O)c1nn(-c2ccc(Cl)cc2Cl)c(-c2ccc(Cl)cc2)c1C", "tested at": "30 µM", "measure": "inhibition", "read by": "agar", "strain or isolate": "mc2155", "result": "14.07%"}
{"structure": "CN[C@@H]1[C@H](O[C@H]2[C@H](O[C@H]3[C@H](O)[C@@H](O)[C@H](N=C(N)N)[C@@H](O)[C@@H]3N=C(N)N)O[C@@H](C)[C@]2(O)C=O)O[C@@H](CO)[C@H](O)[C@H]1O", "tested at": "10 µg", "measure": "zone", "read by": "agar diffusion", "result": "30 mm"}
{"structure": "CN[C@@H]1[C@H](O[C@H]2[C@H](O[C@H]3[C@H](O)[C@@H](O)[C@H](N=C(N)N)[C@@H](O)[C@@H]3N=C(N)N)O[C@@H](C)[C@]2(O)C=O)O[C@@H](CO)[C@H](O)[C@H]1O", "tested at": "10 µg/mL", "measure": "zone", "read by": "agar diffusion / agar", "strain or isolate": "ATCC 607", "result": "35 mm"}
{"structure": "CC(C)NCCCNC(C)C", "tested at": "1000 µg/mL", "measure": "inhibition", "strain or isolate": "ATCC 607", "result": "0%"}
{"structure": "CCc1cc(C(N)=S)ccn1", "measure": "MIC", "strain or isolate": "mc2651", "result": ">80 µg/mL"}
{"structure": "CCC(C)(C)NCCNC(C)(C)CC", "tested at": "250 µg/mL", "measure": "inhibition", "strain or isolate": "ATCC 607", "result": "0%"}
{"structure": "CCC1CN(c2cc3c(cc2F)c(=O)c(C(=O)O)cn3C2CC2)CCN1", "measure": "MIC99", "strain or isolate": "WT", "result": "0.062 µg/mL"}
{"structure": "CCCCCCCCCC(CCCCCCCCC)NC(=O)NC(CCC(=O)O)(CCC(=O)O)CCC(=O)O", "measure": "MIC", "strain or isolate": "mc155", "result": "108 µg/mL"}
{"structure": "N#Cc1c(N)oc(-c2ccccc2)c1-c1ccccc1", "tested at": "50 µg/mL", "measure": "inhibition", "read by": "resazurin", "result": "32%"}
{"structure": "COc1c(N2CC[C@H](N)C2)c(F)cc2c(=O)[nH]c(=O)n(C3CC3)c12", "measure": "MIC99", "strain or isolate": "D95Y mutant", "result": "200 µg/mL"}
{"structure": "CCCCCC(C)NCCNC(C)CCCCC", "measure": "EC50", "strain or isolate": "ATCC 607", "result": "<30 µg/mL"}
{"structure": "Cc1c(C(=O)O)nn(-c2ccc(Cl)cc2Cl)c1-c1ccc(Cl)cc1", "tested at": "30 µM", "measure": "inhibition", "read by": "agar", "strain or isolate": "mc2155", "result": "22.84%"}
{"structure": "COc1c(N2CC[C@H](N)C2)c(F)cc2c(=O)n(N)c(=O)n(C3CC3)c12", "measure": "MIC99", "strain or isolate": "D95Y mutant", "result": "25 µg/mL"}
{"structure": "Cc1c(C(=O)NN2CCCCC2)nn(-c2ccccc2)c1-c1ccc(Cl)cc1", "tested at": "30 µM", "measure": "inhibition", "read by": "agar", "strain or isolate": "mc2155", "result": "99.7%"}
{"structure": "CCC1CN(c2c(F)cc3c(=O)c(C(=O)O)cn(C4CC4)c3c2OC)CCN1", "measure": "MIC99", "strain or isolate": "G89C mutant", "result": "0.5 µg/mL"}
{"structure": "CCCCCCCCCCCCCCCCOC(=O)NC(C)(CCC(=O)O)CCC(=O)O", "measure": "MIC", "strain or isolate": "mc155", "result": "54 µg/mL"}
{"structure": "Cc1c(C(=O)O)nn(-c2ccccc2)c1-c1ccc(Cl)cc1", "tested at": "30 µM", "measure": "inhibition", "read by": "agar", "strain or isolate": "mc2155", "result": "17.7%"}
{"structure": "CC(C)N[C@@H](C)[C@@H](C)NC(C)C", "tested at": "1000 µg/mL", "measure": "inhibition", "strain or isolate": "ATCC 607", "result": "0%"}
{"structure": "CCCCCCCCCCCCCCCCCCCCNC(=O)NC(CCC(=O)O)(CCC(=O)O)CCC(=O)O", "measure": "MIC", "strain or isolate": "mc155", "result": "36 µg/mL"}
{"structure": "CC(C)NC(C)C(C)NC(C)C", "tested at": "1000 µg/mL", "measure": "inhibition", "strain or isolate": "ATCC 607", "result": "0%"}
{"structure": "CC(C)CCC[C@@H](C)[C@H]1CC[C@H]2[C@@H]3CC[C@H]4C[C@H](NC(=O)NC(CCC(=O)O)(CCC(=O)O)CCC(=O)O)CC[C@]4(C)[C@H]3CC[C@]12C", "measure": "MIC", "strain or isolate": "mc155", "result": "34 µg/mL"}

A second listing of 3 rows from above:

{"structure": "CC(C)CNCCNCC(C)C", "tested at": "250 µg/mL", "measure": "inhibition", "strain or isolate": "ATCC 607", "result": "0%"}
{"structure": "CN[C@@H]1[C@H](O[C@H]2[C@H](O[C@H]3[C@H](O)[C@@H](O)[C@H](N=C(N)N)[C@@H](O)[C@@H]3N=C(N)N)O[C@@H](C)[C@]2(O)C=O)O[C@@H](CO)[C@H](O)[C@H]1O", "tested at": "10 µg/mL", "measure": "zone", "read by": "agar diffusion / agar", "strain or isolate": "ATCC 607", "result": "35 mm"}
{"structure": "CC(C)CCC[C@@H](C)[C@H]1CC[C@H]2[C@@H]3CC[C@H]4C[C@H](NC(=O)NC(CCC(=O)O)(CCC(=O)O)CCC(=O)O)CC[C@]4(C)[C@H]3CC[C@]12C", "measure": "MIC", "strain or isolate": "mc155", "result": "34 µg/mL"}

MIC50, MIC90 and the like: level of inhibition, or share of isolates inhibited. Percent inhibition refers to the dose given; in toxicity tests it is the harm to the cells. Conditions beyond the fields shown may differ between rows. ECn: concentration that inhibits the pathogen or its effect by n%.